According to patent US6962920B2, “Pyrimidine derivatives and methods of making and using these derivatives” (Duquesne University of the Holy Ghost, priority 1992, dated 2005):
pIC50: −log10 of the molar value. Like-named read-outs stand apart in the source and are kept apart here.

Protein sequences, listed by entry. Tags and fused reporters are not part of them. Residues count along the entry.
UniProt Q07422, whole entry: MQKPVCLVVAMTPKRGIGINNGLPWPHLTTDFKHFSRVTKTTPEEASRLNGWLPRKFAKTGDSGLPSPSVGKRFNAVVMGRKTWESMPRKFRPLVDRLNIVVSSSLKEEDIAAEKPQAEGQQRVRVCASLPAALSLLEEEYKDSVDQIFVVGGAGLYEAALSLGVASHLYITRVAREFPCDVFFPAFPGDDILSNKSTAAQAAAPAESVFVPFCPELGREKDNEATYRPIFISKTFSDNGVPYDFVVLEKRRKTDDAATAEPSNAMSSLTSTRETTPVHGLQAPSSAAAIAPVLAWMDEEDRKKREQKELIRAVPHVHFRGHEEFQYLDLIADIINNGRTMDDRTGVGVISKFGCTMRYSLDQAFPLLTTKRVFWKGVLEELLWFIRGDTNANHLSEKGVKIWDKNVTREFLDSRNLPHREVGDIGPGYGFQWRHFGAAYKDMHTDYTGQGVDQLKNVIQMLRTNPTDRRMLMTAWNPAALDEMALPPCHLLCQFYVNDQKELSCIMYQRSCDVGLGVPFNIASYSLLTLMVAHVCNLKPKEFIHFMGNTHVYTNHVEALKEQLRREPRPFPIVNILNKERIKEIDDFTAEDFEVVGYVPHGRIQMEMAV
UniProt P16184, whole entry: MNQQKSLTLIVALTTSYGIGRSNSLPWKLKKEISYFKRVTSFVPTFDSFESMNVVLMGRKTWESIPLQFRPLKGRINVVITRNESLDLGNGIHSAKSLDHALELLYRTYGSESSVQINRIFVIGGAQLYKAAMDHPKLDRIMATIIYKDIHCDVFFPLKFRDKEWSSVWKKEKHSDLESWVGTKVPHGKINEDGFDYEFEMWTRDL
UniProt P0A884, whole entry: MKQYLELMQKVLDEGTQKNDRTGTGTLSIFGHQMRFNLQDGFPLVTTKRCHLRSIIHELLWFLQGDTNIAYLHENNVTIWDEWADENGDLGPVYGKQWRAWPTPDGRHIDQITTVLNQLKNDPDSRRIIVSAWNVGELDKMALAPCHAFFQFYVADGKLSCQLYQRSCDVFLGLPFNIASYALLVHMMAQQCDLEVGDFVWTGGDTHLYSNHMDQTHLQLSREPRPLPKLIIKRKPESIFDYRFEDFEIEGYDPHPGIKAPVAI
UniProt I6T9L7, 1-486: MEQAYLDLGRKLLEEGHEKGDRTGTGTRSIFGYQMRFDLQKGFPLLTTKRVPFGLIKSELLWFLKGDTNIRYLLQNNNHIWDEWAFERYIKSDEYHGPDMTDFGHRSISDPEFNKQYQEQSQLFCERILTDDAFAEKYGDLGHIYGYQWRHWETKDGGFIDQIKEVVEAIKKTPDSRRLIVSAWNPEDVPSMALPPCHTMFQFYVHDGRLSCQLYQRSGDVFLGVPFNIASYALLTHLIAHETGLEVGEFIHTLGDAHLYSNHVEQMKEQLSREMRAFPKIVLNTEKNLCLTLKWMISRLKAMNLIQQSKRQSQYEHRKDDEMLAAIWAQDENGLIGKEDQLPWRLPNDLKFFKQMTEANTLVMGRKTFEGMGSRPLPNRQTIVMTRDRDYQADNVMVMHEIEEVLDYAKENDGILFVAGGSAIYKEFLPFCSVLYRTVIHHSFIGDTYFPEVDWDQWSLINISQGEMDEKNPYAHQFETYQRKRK
UniProt O30463, 1-181: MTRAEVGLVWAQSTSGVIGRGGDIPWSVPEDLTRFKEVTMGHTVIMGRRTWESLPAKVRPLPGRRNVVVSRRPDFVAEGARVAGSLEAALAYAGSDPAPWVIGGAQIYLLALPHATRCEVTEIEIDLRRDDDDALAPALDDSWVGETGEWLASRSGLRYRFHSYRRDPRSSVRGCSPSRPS

Legend:
Tg DHFR = Tg DHFR (Toxoplasma gondii, UniProt Q07422)
Pc DHFR [1] = target: T1, Pc DHFR (Pneumocystis carinii, UniProt P16184)
Pc DHFR [2] = target: T1, Pc DHFR; remark: listed apart in the source
[3] = target: E-coli thymidylate synthase (ecTS) (Escherichia coli, UniProt P0A884); experiment: Inhibition of E. coli thymidylate synthase; assay type: biochemical; settings: read-out: TS IC50, E. Coli; Table 13
S. Faecium TS = S. Faecium TS (Enterococcus hirae, UniProt I6T9L7); experiment: Inhibition of S. faecium TS; assay type: biochemical; settings: Table 13; for % in parentheses after the > value, S. Faecium TS: at the concentration given; for pIC50: read-out: TS IC50, S. Faecium
Ma DHFR = Ma DHFR (Mycobacterium avium, UniProt O30463); experiment: Inhibition of M. avium DHFR
[4] = read-out: Inhibitory Concentrations (IC50) Tg DHFR, Table 26
[5] = read-out: Inhibitory Concentrations (IC50) Pc DHFR, Table 26
[6] = Table 7, IC50 RL DHFR divided by IC50 Pc DHFR
[7] = Table 7, IC50 RL DHFR divided by IC50 Tg DHFR
[8] = read-out: Pc DHFR IC50, Table 7
[9] = read-out: DHFR IC50, Pc, Table 14

SMILES: Nc1nc2[nH]cc(CNc3cc(Cl)ccc3Cl)c2c(=O)[nH]1
- rl/tg (Tg DHFR; Table 22, selectivity ratio): >38
- pIC50 (Pc DHFR [1]; read-out: pcDHFR IC50, Table 22): < 4.60

SMILES: COc1ccccc1CCc1c[nH]c2nc(N)nc(C)c12
- Selectivity Ratio: RL DHFR/Pc DHFR (Pc DHFR [2]; Table 26): 0.05
- Selectivity Ratio: RL DHFR/Tg (Tg DHFR; Table 26): 0.41
- pIC50 (Tg DHFR; [4]): 5.36
- pIC50 (Pc DHFR [1]; [5]): 4.44

SMILES: Nc1nc(N)c2c(CSc3ccc4ccccc4c3)c[nH]c2n1
- Selectivity Ratio: RL DHFR/Pc DHFR (Pc DHFR [2]; [6]): 0.09
- Selectivity Ratio: RL DHFR/Tg (Tg DHFR; [7]): 9.01

SMILES: COc1ccc(OC)c(N(C)Cc2c[nH]c3nc(N)nc(N)c23)c1
- Selectivity Ratio: RL DHFR/Tg (Tg DHFR; [7]): > 4

SMILES: COc1cc(CCc2cn(Cc3ccccc3)c3nc(N)nc(C)c23)cc(OC)c1OC
- % inhibition Tg DHFR (Tg DHFR; @ 35 μM): 13% @ 35 μM
- % inhibition Pc DHFR (Pc DHFR [1]; @ 35 μM): 10% @

SMILES: COc1ccc(SCc2c[nH]c3nc(N)nc(N)c23)cc1OC
- Selectivity Ratio: RL DHFR/Pc DHFR (Pc DHFR [2]; [6]): 1.5
- Selectivity Ratio: RL DHFR/Tg (Tg DHFR; [7]): 6.42

SMILES: Cc1[nH]c2nc(N)[nH]c(=O)c2c1Sc1ccc2ccccc2c1
- pIC50 [3]: < 4.60
- % in parentheses after the > value, S. Faecium TS (S. Faecium TS): 0%
- pIC50 (S. Faecium TS): < 4.60

SMILES: CN(Cc1c[nH]c2nc(N)nc(N)c12)c1cccc2ccccc12
- Selectivity Ratio: RL DHFR/Pc DHFR (Pc DHFR [2]; [6]): 0.04
- Selectivity Ratio: RL DHFR/Tg (Tg DHFR; [7]): 9.43

SMILES: COc1ccc(CCc2c[nH]c3nc(N)nc(C)c23)cc1
- pIC50 (Tg DHFR; [4]): 4.91
- % inhibition Pc DHFR (Pc DHFR [1]; @ 11 μM): 0% @

SMILES: Cc1nc(N)nc2c1c(CCc1ccccc1)cn2Cc1ccccc1
- Selectivity Ratio: RL DHFR/Pc DHFR (Pc DHFR [2]; Table 26): 2.55
- % inhibition Tg DHFR (Tg DHFR; @ 75 μM): 17% @ 75 μM
- pIC50 (Pc DHFR [1]; [5]): 4.42

SMILES: Nc1nc(N)c2c(-c3ccccc3)coc2n1
- pIC50 (Tg DHFR; read-out: Tg DHFR IC50, Table 16): < 4.55
- pIC50 (Pc DHFR [1]; read-out: Pc DHFR IC50, Table 16): < 4.55

SMILES: Nc1nc(N)c2c(CNc3ccc(O)cc3)c[nH]c2n1
- Selectivity Ratio: RL DHFR/Pc DHFR (Pc DHFR [2]; [6]): 0.05
- Selectivity Ratio: RL DHFR/Tg (Tg DHFR; [7]): 3
- pIC50 (Tg DHFR; read-out: Tg DHFR IC50, Table 7): 5.85
- pIC50 (Pc DHFR [1]; [8]): 4.09

SMILES: CN(Cc1c[nH]c2nc(N)nc(N)c12)c1ccc(Cl)c(Cl)c1
- Selectivity Ratio: RL DHFR/Pc DHFR (Pc DHFR [2]; [6]): 0.11
- Selectivity Ratio: RL DHFR/Tg (Tg DHFR; [7]): 3
- pIC50 (Pc DHFR [1]; [8]): 4.54

SMILES: Cc1nc(N)nc2[nH]cc(CCc3ccccc3)c12
- Selectivity Ratio: RL DHFR/Tg (Tg DHFR; Table 26): 1
- pIC50 (Tg DHFR; [4]): 5.20
- % inhibition Pc DHFR (Pc DHFR [1]; @ 28 μM): 28% @

SMILES: Nc1nc(N)c2c3c(oc2n1)CN(Cc1ccc(C(=O)N[C@@H](CCC(=O)O)C(=O)O)cc1)CC3
- selectivity ratio Ma DHFR versus RL DHFR (Ma DHFR): 88
- Selectivity ratio RL/Pc (Pc DHFR [2]; Table 20): 7.9
- Selectivity ratio RL/Tg (Tg DHFR; Table 20): 4

SMILES: Cc1[nH]c2nc(N)[nH]c(=O)c2c1Sc1ccccc1
- pIC50 [3]: < 4.52
- % in parentheses after the > value, S. Faecium TS (S. Faecium TS): 20%
- pIC50 (S. Faecium TS): < 4.52

SMILES: Cc1[nH]c2nc(N)[nH]c(=O)c2c1Sc1ccc(Cl)cc1
- pIC50 (S. Faecium TS): 4.52
- pIC50 (Pc DHFR [1]; [9]): 4.40

SMILES: Nc1nc(N)c2c(CSc3cccc4ccccc34)c[nH]c2n1
- Selectivity Ratio: RL DHFR/Pc DHFR (Pc DHFR [2]; [6]): 0.28
- Selectivity Ratio: RL DHFR/Tg (Tg DHFR; [7]): 3.7

SMILES: Nc1nc(N)c2c(CNc3cccc4ccccc34)c[nH]c2n1
- Selectivity Ratio: RL DHFR/Pc DHFR (Pc DHFR [2]; [6]): 0.2
- Selectivity Ratio: RL DHFR/Tg (Tg DHFR; [7]): 53.9

SMILES: Cc1[nH]c2nc(N)[nH]c(=O)c2c1Sc1ccc(Cl)c(Cl)c1
- % in parentheses after the > value, S. Faecium TS (S. Faecium TS): 31%
- pIC50 (Pc DHFR [1]; [9]): < 4.70

SMILES: Nc1nc(N)c2c(CNc3cccc4cc5ccccc5cc34)coc2n1
- % inhibition Pc DHFR (Pc DHFR [1]; @ 51 μM): 50% @ 51 μM

SMILES: COc1cccc(CCc2c[nH]c3nc(N)nc(C)c23)c1
- Selectivity Ratio: RL DHFR/Pc DHFR (Pc DHFR [2]; Table 26): < 0.11
- Selectivity Ratio: RL DHFR/Tg (Tg DHFR; Table 26): 0.62
- pIC50 (Tg DHFR; [4]): 5.22
- % inhibition Pc DHFR (Pc DHFR [1]; @ 40 μM): 18% @

SMILES: Nc1nc(N)c2c(CNc3ccc4c(c3)Cc3ccccc3-4)coc2n1
- pIC50 (Pc DHFR [1]; read-out: Inhibitory Concentrations (IC50) Pc DHFR, Table 30): 4.44

SMILES: COc1ccc(Sc2c(C)[nH]c3nc(N)[nH]c(=O)c23)cc1OC
- % in parentheses after the > value, S. Faecium TS (S. Faecium TS): 12%
